Where two headings read alike, the source gives them in different places.
Test system: Raw 264.7 cells
Conditions: murine Norovirus test

| Molecule | Level of cytotoxicity (0.7% (m:v)) | Level of cytotoxicity (50 ppm) | Level of cytotoxicity (500 ppm) | Level of cytotoxicity (1000 ppm) |
| --- | --- | --- | --- | --- |
| C=O [Formaldehyde, formaldehyde, reference compound] | 0.5 |  |  |  |
| L-arginine, N^α-lauroyl-ethyl ester monohydrochloride [LAE®] |  | 0.5 | 0.5 | 0.5 |
